# Results of single-concentration screens

Measurements from “University of Dundee, Small-Polar-MMV Screening Library” (2021), ChEMBL document CHEMBL3988442.

A: 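Whole-cell growth test on Mycobacterium tuberculosis, read after 3 days in glucose-containing 7H9 medium; the read-out is not stated. Tested at 500 µM. The record gives no direction; compounds that gave an IC50 in retests scored well above the rest, so higher reads as more growth inhibition. Of about 18,000 compounds tested this way, about 1,400 (7.9%) reached 50% or more in at least one test.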
B: 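Whole-cell growth test on Mycobacterium tuberculosis, read after 4 days in a medium based on cholesterol and the lipid DPPC; the read-out is not stated. Tested at 500 µM. Direction is inferred from retests: higher values go with more growth inhibition. About 18,000 compounds were tested under these conditions; 5% (about 900) showed 50% or more at least once.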

Each number is a percent effect as filed.
The record does not define 0% and 100%; most values in the screen are far below 50% and negative numbers occur (in some assays of this library far below -100).
This is part of a subset picked to be rich in strong results.
A dash means the value is not listed here; it may have been measured.

O=C(NCCn1cncn1)[C@@H](O)Cc1ccccc1 read A: 12.27%. Result for CCCS(=O)(=O)NC1CCN(Cc2nnc(C)o2)CC1 was A: -6.338%. Result for Cc1ccc(SCC(=O)NC(N)=O)nc1 was B: -19.7%. CCC(=O)N1CCN(C(=O)C2CCCCN2CC)CC1 (stereo not drawn) read A: 6.83%. With CCN(C)CCNS(=O)(=O)c1ccc(C(C)=O)cc1 the screen gave A: 41.85%. CN1CCC(NC(=O)CCCOc2ccccc2)CC1 read A: -10.4%. Cc1cnccc1CN(C)C(=O)c1ccc(F)cc1O read B: 4.775%.

With O=C(CCN1CCN(c2ccccn2)CC1)NC1CC1 the screen gave A: 10.89%; B: 56.41%. Cc1ccc(NC(=O)CNCCN2CCOCC2)cc1 read A: 10.68%. With CNC(=O)C(C)S(=O)(=O)Cc1cc(C)ccc1C (stereo not drawn) the screen gave B: -4.813%. CC(C)c1ncc(C(=O)Nc2ccc(C(N)=O)nc2)s1 read B: 3.587%. CC(Cn1cccn1)NC(=O)CN1CCOC1=O (stereo not drawn) read A: -14.51%. Result for CN1CCN(c2ccc(N)nc2)CC1 was A: -18.55%. Result for CCC(=O)Nc1ccc(Br)cn1 was A: 32.86%; B: 12.7%.

For CCOc1nc(N2CC(O)C2)ncc1Br the result was A: -19%. c1cnn(CCN2CCCC(Cn3cncn3)C2)c1 (stereo not drawn) gave A: -10.59%. NC1CCCc2sccc21 (stereo not drawn) read A: 9.066%; B: 10.76%. For O=C(NCCO)c1ccc(OCc2cccs2)cc1 the result was A: 69.59%; B: 58.83%. CSc1cncc(NCCOc2cccnc2)n1 gave A: 37.66%. Result for Cc1ccncc1NC(=O)CCCc1ccccn1 was A: -8.035%. CCOC(=O)c1ccc(N2CCC(CCO)CC2)nc1 read A: 82.47%; B: 88%.

For Cc1cn2c(n1)CCC(NC(=O)COCC(F)(F)F)C2 (stereo not drawn) the result was A: 11.06%. For CCN(Cc1ccco1)C(=O)c1csc(NC(C)=O)n1 the result was B: 6.05%. For OCC(O)CSCc1nc(-c2ccc(Cl)cc2)no1 (stereo not drawn) the result was A: 71.19%; B: 73.82%. With Cc1noc(NC(=O)c2ccc(C(F)(F)F)nc2C)n1 the screen gave A: 91.31%; B: 100.7%. For CN(Cc1ccccc1N1CCOCC1)S(N)(=O)=O the result was A: 19.84%. For Cn1nccc1[C@@H]1OCCC[C@H]1CN the result was A: 8.217%. For Cc1cc(CO)no1 the result was B: -11.44%.

Result for Cc1cccc(OCC(O)Cn2ccnc2C)c1 (stereo not drawn) was A: -5.322%. For CCNC(=O)c1cc(N2CCCC(C)CC2)ccn1 (stereo not drawn) the result was A: 57.96%; B: 57.85%. For NC(=O)Nc1cccc(C(=O)Nc2ccc(Cl)cn2)c1 the result was A: 79.93%; B: 88.87%.

The first 3 entries again:

Compound	A	B
O=C(NCCn1cncn1)[C@@H](O)Cc1ccccc1	12.27%	-
CCCS(=O)(=O)NC1CCN(Cc2nnc(C)o2)CC1	-6.338%	-
Cc1ccc(SCC(=O)NC(N)=O)nc1	-	-19.7%